The numbers were not newly measured in US7868028B2 (priority 2002, dated 2011), which cites them from elsewhere.

One data set relates to rat. Particulars: intrathecal, dose approximating 10×ED50 for block of the tail-flick reflex; cited from earlier work.
The test system of the next data set is neural elements. Conditions: rat, intrathecal, 10×ED50 for block of tail-flick reflex; Sakura et al. 1995; cited from earlier work.

As to `NC1=N[C@H](O)[C@H]2[C@H]3O[C@]4(O)O[C@@H]([C@@H](O)[C@@]2(N1)[C@@H]4O)[C@]3(O)CO` [TTX, tetrodotoxin], the “duration of neuronal block” value in the data set with rat was “between two and four days”. The “toxicity to neural elements” value in the data set on neural elements is “indistinguishable from saline”.
